## In-gel DMS probing of monomeric and dimeric HIV-1 RNA

From the data files of Ye et al. 2022, doi:10.1038/s41594-022-00746-2.

Sequence of the HIV-1 NL4-3 5' RNA, positions 1 to 437, as numbered in the source:
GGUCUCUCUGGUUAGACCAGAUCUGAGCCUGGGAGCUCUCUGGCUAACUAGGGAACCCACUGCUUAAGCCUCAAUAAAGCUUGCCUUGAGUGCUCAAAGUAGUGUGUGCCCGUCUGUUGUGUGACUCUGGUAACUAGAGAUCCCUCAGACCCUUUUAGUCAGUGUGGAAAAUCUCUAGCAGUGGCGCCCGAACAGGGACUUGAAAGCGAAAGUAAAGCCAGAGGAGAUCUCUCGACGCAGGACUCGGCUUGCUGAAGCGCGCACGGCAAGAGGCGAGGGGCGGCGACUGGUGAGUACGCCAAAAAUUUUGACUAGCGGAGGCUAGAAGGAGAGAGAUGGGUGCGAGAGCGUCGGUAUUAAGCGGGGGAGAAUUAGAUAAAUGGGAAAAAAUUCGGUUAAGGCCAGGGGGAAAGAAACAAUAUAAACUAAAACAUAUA

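Randomly mutated transcripts starting with one, two or three G (1G, 2G, 3G), capped or uncapped, were folded for 30 min at 37 °C. Monomer and dimer bands were cut from native gels after folding in high salt (300 mM KCl, 5 mM MgCl2) or low salt (40 mM KCl, 0.1 mM MgCl2). Each band was probed in the gel with DMS (170 mM, 15 min, 37 °C), with ethanol as control, and sequenced.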

Values are winsor-normalised DMS reactivities of A and C; higher means more reactive, usually unpaired.
One numbering serves 1G, 2G and 3G.
A position is written with its base.

For A194 the result was 2G uncapped low-salt dimer 0.93; 1G capped high-salt monomer 1.00; 2G uncapped high-salt dimer 0.84. A198 read 2G uncapped low-salt dimer 0.59; 1G capped high-salt monomer 0.59; 2G uncapped high-salt dimer 0.56. With C199 the assay gave 2G uncapped low-salt dimer 0.50; 1G capped high-salt monomer 0.48; 2G uncapped high-salt dimer 0.45. A203 gave 2G uncapped low-salt dimer 0.50; 1G capped high-salt monomer 0.51; 2G uncapped high-salt dimer 0.51. With A204 the assay gave 2G uncapped low-salt dimer 0.72; 1G capped high-salt monomer 0.69; 2G uncapped high-salt dimer 0.73. With A205 the assay gave 2G uncapped low-salt dimer 0.35; 1G capped high-salt monomer 0.32; 2G uncapped high-salt dimer 0.40.

C207 read 2G uncapped low-salt dimer 0.63; 1G capped high-salt monomer 0.47; 2G uncapped high-salt dimer 0.56. For A209 the result was 2G uncapped low-salt dimer 0.40; 1G capped high-salt monomer 0.48; 2G uncapped high-salt dimer 0.39. With A210 the assay gave 2G uncapped low-salt dimer 0.50; 1G capped high-salt monomer 0.59; 2G uncapped high-salt dimer 0.48. A211 gave 2G uncapped low-salt dimer 0.53; 1G capped high-salt monomer 0.41; 2G uncapped high-salt dimer 0.51. A214 gave 2G uncapped low-salt dimer 0.29; 1G capped high-salt monomer 0.26; 2G uncapped high-salt dimer 0.30. A215 gave 2G uncapped low-salt dimer 0.64; 1G capped high-salt monomer 0.52; 2G uncapped high-salt dimer 0.67.

With A216 the assay gave 2G uncapped low-salt dimer 0.70; 1G capped high-salt monomer 0.52; 2G uncapped high-salt dimer 0.78. With C218 the assay gave 2G uncapped low-salt dimer 0.06; 1G capped high-salt monomer 0.04; 2G uncapped high-salt dimer 0.08. With C219 the assay gave 2G uncapped low-salt dimer 0.06; 1G capped high-salt monomer 0.04; 2G uncapped high-salt dimer 0.07. A220 read 2G uncapped low-salt dimer 0.23; 1G capped high-salt monomer 0.35; 2G uncapped high-salt dimer 0.24. A222 read 2G uncapped low-salt dimer 0.31; 1G capped high-salt monomer 0.28; 2G uncapped high-salt dimer 0.34. A225 read 2G uncapped low-salt dimer 0.85; 1G capped high-salt monomer 0.78; 2G uncapped high-salt dimer 0.86.

For A227 the result was 2G uncapped low-salt dimer 0.22; 1G capped high-salt monomer 0.25; 2G uncapped high-salt dimer 0.19. With C229 the assay gave 2G uncapped low-salt dimer 0.14; 1G capped high-salt monomer 0.21; 2G uncapped high-salt dimer 0.14. C231 gave 2G uncapped low-salt dimer 0.12; 1G capped high-salt monomer 0.14; 2G uncapped high-salt dimer 0.13. For C233 the result was 2G uncapped low-salt dimer 0.17; 1G capped high-salt monomer 0.26; 2G uncapped high-salt dimer 0.14. A235 read 2G uncapped low-salt dimer 0.76; 1G capped high-salt monomer 0.71; 2G uncapped high-salt dimer 0.75. C236 read 2G uncapped low-salt dimer 0.48; 1G capped high-salt monomer 0.53; 2G uncapped high-salt dimer 0.39.

For C238 the result was 2G uncapped low-salt dimer 0.50; 1G capped high-salt monomer 0.69; 2G uncapped high-salt dimer 0.41. A239 gave 2G uncapped low-salt dimer 0.78; 1G capped high-salt monomer 0.58; 2G uncapped high-salt dimer 0.75. With A242 the assay gave 2G uncapped low-salt dimer 1.06; 1G capped high-salt monomer 0.92; 2G uncapped high-salt dimer 1.06. With C243 the assay gave 2G uncapped low-salt dimer 0.04; 1G capped high-salt monomer 0.06; 2G uncapped high-salt dimer 0.03. With C245 the assay gave 2G uncapped low-salt dimer 0.07; 1G capped high-salt monomer 0.19; 2G uncapped high-salt dimer 0.05. C248 read 2G uncapped low-salt dimer 0.04; 1G capped high-salt monomer 0.06; 2G uncapped high-salt dimer 0.03.

Excerpt, the final 2 entries:

position,2G uncapped low-salt dimer,1G capped high-salt monomer,2G uncapped high-salt dimer
C245,0.07,0.19,0.05
C248,0.04,0.06,0.03